Pooled drug test results. Numbers come from NIAID ChemDB, via PubChem.

Common to all: growth or infection tests; organism: Hepatitis C virus; measure: EC50

ECn: concentration that inhibits the pathogen or its effect by n%.

SMILES,strain or isolate,changes,cell line,read by,conditions,result
Nc1ncnc2c1c(-c1ccoc1)cn2[C@@H]1O[C@H](CO)[C@@H](O)[C@H]1F,1a,-,HCV replicon,replicon,-,4.37 µM
O=C(O)c1ccc2c(C3CCCCC3)c3n(c2c1)CC(C(=O)N1CCC(N2CCCC2)CC1)Cc1ccccc1-3,-,-,Huh7,replicon,-,0.01–1 µM
COc1ccc2c(c1)C[C@@H]1C[C@]1(C(=O)N1C[C@H]3CC[C@@H](C1)CN(S(=O)(=O)C(C)C)C3)Cn1c-2c(C2CCCCC2)c2ccc(C(=O)NS(=O)(=O)N(C)C)cc21,H77,-,HCV replicon cells,luciferase / replicon,-,0.006 µM
Cn1c(=O)cc(Sc2ccc(NC(=O)[C@H](Cc3ccc(F)cc3)NC(=O)OC(C)(C)C)cc2)c2ccccc21,-,-,Huh-Luc-Neo,luciferase / replicon,-,1–10 µM
O=C(O)c1ccc2c(C3CCCCC3)c3n(c2c1)C/C=C\COc1ccccc1-3,-,-,Huh7,replicon,-,1–10 µM
O=C(N[C@@H](C(=O)N1CCC[C@H]1c1ncc(-c2ccc(-c3ccc(-c4cnc([C@@H]5CCCN5C(=O)[C@H](NC(=O)C5CC5)c5ccccc5)s4)cc3)cc2)s1)c1ccccc1)C1CC1,genotype 1b,P58S,Huh7.5,luciferase / reporter gene,-,0.000038 µM
C#Cc1cn([C@@H]2O[C@H](CO)[C@@H](O)[C@H]2F)c2ncnc(N)c12,2a,-,HCV replicon,replicon,-,1.86 µM
Cc1ccc(NCc2cc3ccccc3oc2=O)c(C)c1,-,-,Ava5,-,-,>100 µM
Nc1ncnc2c1c(-c1ccccc1)cn2[C@@H]1O[C@H](CO)[C@@H](O)[C@H]1F,1a,-,HCV replicon,replicon,-,33.13 µM
Nc1ccc(CNC(=O)c2nc3ccccc3c(=O)n2O)cc1,1b,-,Ava5,replicon,-,21.4 µM
Cc1ccc(Sc2cc(=O)n(C)c3ccc(F)cc23)cc1,-,-,Huh-Luc-Neo,luciferase / replicon,-,1–10 µM
CCOC(=O)c1c(CS(=O)c2ccccc2)n(C)c2cc(-c3cccnc3)c(O)c(CN(C)C)c12,-,-,Huh7.3,ELISA,-,6.6 µM
O=C(N[C@@H](C(=O)N1CCC[C@H]1C(=O)Nc1nc(-c2ccccc2)cs1)c1ccccc1)C1CC1,genotype 1b,-,Con-1,-,-,0.0041 µM
OC[C@H]1O[C@@H](n2cnc3c(CCSC4CCCCC4)ncnc32)[C@H](O)[C@@H]1O,1b,-,Huh7 (MT-4),replicon,genotype 1b,>100 µM
Nc1ncnc2c1c(-c1cccs1)cn2[C@@H]1O[C@H](CO)[C@@H](O)C1(F)F,1a,-,HCV replicon,replicon,-,5.3 µM
O=C(O)/C=C/c1cccc(-c2n[nH]c(C3(NC(=O)c4ccc5c(C6CCCCC6)c6n(c5c4)CC=Cc4ccccc4-6)CCCC3)n2)c1,-,-,Huh7,replicon,-,0.01–1 µM
CCOC(=O)c1ccc(NCc2cc3ccccc3oc2=O)cc1,-,-,Ava5,-,-,100 µM
COC(=O)N[C@@H](CC(C)(C)C)C(=O)N1CCC[C@H]1C(=O)Cc1ccc(-c2ccc(NC(=O)[C@@H]3CCCN3C(=O)[C@H](CC(C)(C)C)NC(=O)OC)cc2)cc1,GT2a,-,Huh7.5.1,luciferase / reporter gene,-,0.024 µM
O=C(NCCCc1ccccc1)c1nc2ccccc2c(=O)n1O,1b,-,Ava5,replicon,-,17.5 µM
C[C@@H]1[C@H](n2ccc(N)nc2=O)O[C@@](COP(=O)(C[C@@H](C)C(=O)OCc2ccccc2)Oc2cccc3ccccc23)(N=[N+]=[N-])[C@H]1O,genotype 1,-,Huh7-Rep,luciferase,-,3 µM
Fc1ccccc1-c1nc2cc[n+](Cc3ccc(-c4ccc(C(F)(F)F)cc4C(F)(F)F)nn3)cc2[nH]1,-,-,H77,luciferase,-,0.0015 µM
CC(C)(C)OC(=O)/C=C/c1ccc(NC(=O)C2(NC(=O)c3ccc4c(C5CCCCC5)c5n(c4c3)CC(=O)Nc3cccnc3-5)CCCC2)cc1,-,-,Huh7,replicon,-,0.01–1 µM
COc1ccc(CNC(=O)c2nc3ccccc3c(=O)n2O)cc1,1b,-,Ava5,replicon,-,32.9 µM
Cn1c(=O)cc(Sc2ccc(Cl)cc2)c2ccccc21,-,-,Huh-Luc-Neo,luciferase / replicon,-,1–10 µM
COC(=O)c1ccc2c(C3CCCCC3)c3n(c2c1)CCCc1cc(OCc2cc([N+](=O)[O-])ccc2F)ccc1-3,-,-,Huh7,replicon,-,1–10 µM
Cn1c(=O)cc(Sc2ccc(I)cc2)c2ccccc21,-,-,Huh-Luc-Neo,luciferase / replicon,-,1–10 µM
Clc1ncnc2c1ncn2C1C[C@H]2C[C@@H]1c1cscc12,1b,-,Huh,replicon,-,14 µM
COC(=O)N[C@@H](C)C(=O)N1CCC[C@H]1C(=O)Cc1ccc(-c2ccc(NC(=O)[C@@H]3CCCN3C(=O)[C@H](C)NC(=O)OC)cc2)cc1,GT2a,-,Huh7.5.1,luciferase / reporter gene,-,>1 µM
S=C(Nc1ccccc1)Nc1ccc2c(c1)Cc1cc(Br)ccc1-2,1b,-,Ava5-EG(D4AB)SEAP,replicon,-,42.84 µM
O=c1nc(NO)ccn1[C@@H]1O[C@H](CO)[C@@H](O)[C@H]1O,-,-,Huh7 replicon,-,4 d,<5 µM
OC[C@H]1O[C@@H](n2cnc3c(CCSC4=NCCS4)ncnc32)[C@H](O)[C@@H]1O,1b,-,Huh7 (MT-4),replicon,genotype 1b,>100 µM
CN(C)[C@@H](C(=O)N1CCC[C@H]1C(=O)Cc1ccc(-c2ccc(NC(=O)[C@@H]3CCCN3C(=O)[C@@H](c3ccccc3)N(C)C)cc2)cc1)c1ccccc1,GT2a,-,Huh7.5.1,luciferase / reporter gene,-,0.0023 µM
CCCCn1c(=O)c2cc(OC)ccc2c2cc(C(O)(C(F)(F)F)C(F)(F)F)c(OC)cc21,1b,-,LucNeo2 cells,PCR,-,0.25 µM
COc1ccc2c(c1)C[C@@H]1C[C@]1(C(=O)N1C[C@@H]3CC[C@@H](CN(CCCC4CCCCC4)C3)C1)Cn1c-2c(C2CCCCC2)c2ccc(C(=O)NS(=O)(=O)N(C)C)cc21,H77,-,HCV replicon cells,luciferase / replicon,-,0.008 µM
COc1ccc(Sc2cc(=O)n(C)c3ccccc23)cc1,-,-,Huh-Luc-Neo,luciferase / replicon,-,1–10 µM
CC[C@@H]1C[C@]1(NC(=O)C1CC(Oc2cc(-c3csc(NC(C)C)n3)nc3c(Cl)c(OCCN4CCOCC4(C)C)ccc23)CN1C(=O)[C@@H](NC(=O)C1C[C@@H]2C[C@@H]2C1)C(C)(C)C)C(=O)O,1b,-,Huh-luc,replicon,-,0.0032 µM
O=C(NCc1ccc([N+](=O)[O-])cc1)c1nc2ccccc2c(=O)n1O,1b,-,Ava5,replicon,-,50.8 µM
Nc1ncnc2c1ncn2C1C[C@H]2C[C@@H]1c1ccsc12,1b,-,Huh,replicon,-,3 µM
COC(=O)/C=C/c1ccc(NC(=O)C2(NC(=O)c3ccc4c(C5CCCCC5)c5n(c4c3)CCOc3cccnc3-5)CCCC2)cc1,-,-,Huh7,replicon,-,0.01–1 µM
O=C(NCc1ccccc1)c1nc2ccccc2c(=O)n1O,1b,-,Ava5,replicon,-,59.4 µM
CCOc1nc(N)nc2c1ncn2[C@@H]1O[C@@H]2COP(=O)(OC(C)C)O[C@H]2[C@@]1(C)F,1b,-,Lunet,PCR,-,0.13 µM
CCC(=O)c1c(-c2ccc(F)cc2)oc2cc(N(CCO)S(C)(=O)=O)c(C3CC3)cc12,-,-,JFH1,luciferase,-,0.1564 µM
Nc1ncnc2c1c(-c1ccsc1)cn2[C@@H]1O[C@H](CO)[C@@H](O)C1(F)F,1a,-,HCV replicon,replicon,-,6.52 µM
COC(=O)N[C@H](C(=O)N1CCC[C@H]1c1ncc(-c2ccc(-c3ccc(-c4cnc([C@@H]5CCCN5C(=O)[C@@H](NC(=O)OC)C(C)C)[nH]4)cc3)cc2)[nH]1)C(C)C,1b,-,ET,luciferase,-,0.0000052 µM
Cn1c(=O)cc(Sc2c(Cl)cccc2Cl)c2ccccc21,-,-,Huh-Luc-Neo,luciferase / replicon,-,1–10 µM
O=c1oc2ccccc2cc1CNc1ccccc1,-,-,Ava5,-,-,90 µM
Nc1ncnc2c1c(-c1ccc3ccccc3c1)cn2[C@@H]1O[C@H](CO)[C@@H](O)C1(F)F,1b,-,HCV replicon,replicon,-,1.21 µM
CCOC(=O)c1c(C)n(C)c2cc(F)c(O)cc12,-,-,Huh7.3,ELISA,-,9.8 µM
Nc1ncnc2c1ncn2C1C[C@H]2C[C@@H]1[C@H]1CSC[C@@H]21,1b,-,Huh,replicon,-,27 µM
CN(Cc1ccccc1)S(=O)(=O)NC(=O)c1ccc2c(C3CCCCC3)c3n(c2c1)CC(=O)Nc1ccccc1-3,-,-,Huh7,replicon,-,0.01–1 µM
Cn1c(=O)cc(Sc2ccc(Br)cc2)c2ccccc21,-,-,Huh-Luc-Neo,luciferase / replicon,-,1–10 µM
CCOC(=O)c1c(CO)n(C)c2cc(-c3cccnc3)c(O)c(CN(C)C)c12,-,-,Huh7.3,ELISA,-,74.8 µM

For reference, 8 entries again:

SMILES,strain or isolate,changes,cell line,read by,conditions,result
OC[C@H]1O[C@@H](n2cnc3c(CCSC4=NCCS4)ncnc32)[C@H](O)[C@@H]1O,1b,-,Huh7 (MT-4),replicon,genotype 1b,>100 µM
Cn1c(=O)cc(Sc2ccc(NC(=O)[C@H](Cc3ccc(F)cc3)NC(=O)OC(C)(C)C)cc2)c2ccccc21,-,-,Huh-Luc-Neo,luciferase / replicon,-,1–10 µM
O=C(NCc1ccccc1)c1nc2ccccc2c(=O)n1O,1b,-,Ava5,replicon,-,59.4 µM
CC[C@@H]1C[C@]1(NC(=O)C1CC(Oc2cc(-c3csc(NC(C)C)n3)nc3c(Cl)c(OCCN4CCOCC4(C)C)ccc23)CN1C(=O)[C@@H](NC(=O)C1C[C@@H]2C[C@@H]2C1)C(C)(C)C)C(=O)O,1b,-,Huh-luc,replicon,-,0.0032 µM
O=C(NCCCc1ccccc1)c1nc2ccccc2c(=O)n1O,1b,-,Ava5,replicon,-,17.5 µM
COC(=O)N[C@@H](CC(C)(C)C)C(=O)N1CCC[C@H]1C(=O)Cc1ccc(-c2ccc(NC(=O)[C@@H]3CCCN3C(=O)[C@H](CC(C)(C)C)NC(=O)OC)cc2)cc1,GT2a,-,Huh7.5.1,luciferase / reporter gene,-,0.024 µM
O=C(O)c1ccc2c(C3CCCCC3)c3n(c2c1)C/C=C\COc1ccccc1-3,-,-,Huh7,replicon,-,1–10 µM
Cc1ccc(NCc2cc3ccccc3oc2=O)c(C)c1,-,-,Ava5,-,-,>100 µM

Blank or dashed fields: not listed here. Lines come from different laboratories, so protocols vary. a–b is a range or a potency band.